How the values were obtained:
EBV (Akata/Akata) = assay: EBV assay: viral DNA quantification in induced Akata cells; type: cell-based, Epstein-Barr virus; conditions: for Normalised value = (Compound EC50/CDV control EC50): EBV; for EBV SI50: Akata/Akata, Table 1
Procedure: (§1) Akata cells were obtained from Louisiana State University, Baton Rouge, LA. The HCMV strain AD169 was obtained from the American Type Culture Collection (ATCC, Manassas, VA). Akata cells latently infected with EBV were obtained from Louisiana State University, Baton Rouge, LA.
(§2) Each experiment that evaluates the antiviral activity of compounds includes both positive and negative control compounds to ensure the performance of each assay. Concurrent assessment of cytotoxicity was also performed for each study in the same cell line and with the same compound exposure.
Assays for EBV were performed by reported methods.^37 Akata cells were induced to undergo a lytic infection with 50 μg/ml of a goat anti-human IgG antibody. Experimental compounds were diluted within plates. The cells were added and incubated for 72 h. Similar plates were initiated without virus induction/addition and used for measuring cytotoxicity by the addition of CTG. For all assays, the replication of the virus was assessed by the quantification of viral DNA. For EBV, primers 5′-[…]-3′ and 5′-CAG TTC CTC GCCTTAGGTTG-3 amplified a fragment corresponding to coordinates 96802-97234 in EBV genome (AJ507799). Compound concentrations sufficient to reduce genome copy number by 50% were calculated from experimental data as well as compound cytotoxicity.

[1] = system: HCMV (AD169 strain in HFF cells); assay: CPE (cytopathic effect) assay for HCMV; type: cell-based, Human Cytomegalovirus; conditions: Table 1
Procedure: Human foreskin fibroblast (HFF) cells prepared from human foreskin tissue were obtained from the University of Alabama at Birmingham tissue procurement facility with approval from its IRB. The tissue was incubated at 4° C. for 4 h in Clinical Medium consisting of minimum essential media (MEM) with Earl's salts supplemented with 10% fetal bovine serum (FBS) (Hyclone, Inc. Logan UT), L-glutamine, fungizone, and vancomycin. Tissue was then placed in phosphate buffered saline (PBS), minced, rinsed to remove the red blood cells, and resuspended in trypsin/EDTA solution. The tissue suspension was incubated at 37° C. and gently agitated to disperse the cells, which were collected by centrifugation. Cells were resuspended in 4 ml Clinical Medium and placed in a 25 cm^2 flask and incubated at 37° C. in a humidified CO2 incubator for 24 h. The media was then replaced with fresh Clinical Medium and the cell growth was monitored daily until a confluent monolayer had formed. The HFF cells were then expanded through serial passages in standard growth medium of MEM with Earl's salts supplemented with 10% FBS, L-glutamine, penicillin, and gentamycin.
as §1, §2
Assays were performed in monolayers as described.37 Cells were seeded in 384 well plates and incubated for 24 h to allow the formation of confluent monolayers. […] After incubation, cytopathology was determined by the addition of CellTiter-Glo (CTG) reagent. […] Toxicity was measured using CTG as above.

HHV-6B (Z29; MOLT-3) = assay: HHV-6B antiviral assay (Z29; MOLT-3); type: cell-based, human betaherpesvirus 6B

| Structure (SMILES) | Normalised value = (Compound EC50/CDV control EC50) (EBV (Akata/Akata); Primary) | Normalised value = (Compound EC50/CDV control EC50) (EBV (Akata/Akata); Secondary) | also measured |
| --- | --- | --- | --- |
| CC(=O)OCC1=C[C@@H](O)[C@H](n2ccc(N)nc2=O)O1 [drawing 67] | 2.71 | – | – |
| CC(C)C(=O)OCC1=C[C@@H](O)[C@H](n2ccc(N)nc2=O)O1 [drawing 64, 3′-Deoxy-3′,4′-didehydro-5′-O-isobutyroyl-cytidine] | – | 2.14 | – |
| CCCCCC(=O)OCC1=C[C@@H](O)[C@H](n2ccc(N)nc2=O)O1 [drawing 75] | 0 | – | – |
| CCC(CC)COC(=O)[C@H](C)N[P@](=O)(OCC1=C[C@@H](O)[C@H](n2ccc(N)nc2=O)O1)Oc1ccccc1 [drawing 77] | 0 | – | – |
| CC(C)OC(=O)[C@H](C)N[P@](=O)(OCC1=C[C@@H](O)[C@H](n2ccc(N)nc2=O)O1)Oc1ccccc1 [Compound 21, 3′-Deoxy-3′,4′-didehydrocytidine-5′-O-[phenyl(isopropoxy-L-alaninyl) ]-Sp-phosphoramidate] | 2.88 | – | EBV SI50 (EBV (Akata/Akata)): >2 µM |
| CC(C)C(=O)OCC1=CC[C@H](n2ccc(N)nc2=O)O1 [drawing 74, 3′,4′-Didehydro-2′,3′-dideoxy-5′-O-isobutyroylcytidine] | – | 3.67 | – |
| CC(C)(C)C(=O)OCOP(=O)(OCOC(=O)C(C)(C)C)OCC1=C[C@@H](O)[C@H](n2ccc(N)nc2=O)O1 [drawing 76] | 0 | – | – |
| Nc1ccn([C@@H]2OC(CO)=C[C@H]2O)c(=O)n1 [ddhC, 3′-Deoxy-3′,4′-didehydro-cytidine, reference compound] | 4.7 | – | EBV SI50 (EBV (Akata/Akata)): >1 µM |
| Nc1nc(O)c2ncn(COC(CO)CO)c2n1 [Ganciclovir, ganciclovir, reference compound] | – | – | HCMV SI50 [1]: >272 µM |
| CC(C)[C@H](N)C(=O)OCC1=C[C@@H](O)[C@H](n2ccc(N)nc2=O)O1 [drawing 70] | – | 3.1 | – |
| CC(C)C(=O)OCC1=C[C@@H](O)[C@H](n2ccc(NO)nc2=O)O1 [Compound 10, 3′-Deoxy-3′,4′-didehydro-4-N-hydroxy-5′-O-isobutyroyl-cytidine] | 3.63 | – | EBV SI50 (EBV (Akata/Akata)): >2 µM; HCMV SI50 [1]: >1786 µM |
| CC(C)C(=O)OCC1=CC[C@H](n2ccc(N)nc2=O)O1 [drawing 73, 3′,4′-Didehydro-2′,3′-dideoxy-5′-O-isobutyroylcytidine] | 2.44 | – | – |
| CC(=O)OCC1=C[C@@H](O)[C@H](n2ccc(N)nc2=O)O1 [drawing 68] | – | 3.08 | – |
| CC(C)(C)C(=O)SCCOP(=O)(OCCSC(=O)C(C)(C)C)OCC1=C[C@@H](O)[C@H](n2ccc(NO)nc2=O)O1 | – | 2.78 | – |
| CC(C)(C)C(=O)OCC1=C[C@@H](O)[C@H](n2ccc(N)nc2=O)O1 [drawing 69] | – | 2.67 | – |
| CC(C)C(=O)OCC1=CC[C@H](n2ccc(N)nc2=O)O1 [Compound 39, 3′,4′-Didehydro-2′,3′-dideoxy-5′-O-isobutyroylcytidine] | – | – | Normalised value = (Compound EC50/CDV control EC50) (HHV-6B (Z29; MOLT-3); Primary): 1.62; Normalised value = (Compound EC50/CDV control EC50) (HHV-6B (Z29; MOLT-3); Secondary): 3.91 |
| Nc1ccn([C@H]2CC=C(CO)O2)c(=O)n1 [drawing 72, 3′,4′-Didehydro-2′,3′-dideoxycytidine] | 11.49 | – | – |
| Nc1ccn(C[C@@H](CO)OCP(=O)(O)O)c(=O)n1 [Cidofovir, cidofovir, reference compound] | – | – | EBV SI50 (EBV (Akata/Akata)): >12 µM |
| CC(C)C(=O)OCC1=C[C@@H](O)[C@H](n2ccc(N)nc2=O)O1 [Compound 8, 3′-Deoxy-3′,4′-didehydro-5′-O-isobutyroyl-cytidine] | 0.92 | – | EBV SI50 (EBV (Akata/Akata)): >7 µM; HCMV SI50 [1]: >2381 µM |
